Here are results for one compound from ChEMBL document CHEMBL4011630 (J Med Chem, 2017).

Protein sequences, listed by entry. Tags and fused reporters are not part of them. Residues count along the entry.
UniProt P04757, 26-499 limits assumed: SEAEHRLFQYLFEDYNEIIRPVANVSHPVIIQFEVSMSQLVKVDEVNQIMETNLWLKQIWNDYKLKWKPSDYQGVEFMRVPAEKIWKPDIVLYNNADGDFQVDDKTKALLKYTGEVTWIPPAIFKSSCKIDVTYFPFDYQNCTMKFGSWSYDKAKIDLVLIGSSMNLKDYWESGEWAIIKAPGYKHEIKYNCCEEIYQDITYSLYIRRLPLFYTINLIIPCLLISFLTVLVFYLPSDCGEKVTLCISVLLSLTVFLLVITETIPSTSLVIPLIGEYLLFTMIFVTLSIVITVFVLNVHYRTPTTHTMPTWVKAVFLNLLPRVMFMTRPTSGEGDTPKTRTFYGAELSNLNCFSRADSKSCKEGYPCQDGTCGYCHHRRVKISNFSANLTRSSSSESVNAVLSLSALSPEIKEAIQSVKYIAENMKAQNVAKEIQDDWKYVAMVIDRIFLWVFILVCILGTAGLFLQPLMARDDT
UniProt P12392, 21-495 limits assumed: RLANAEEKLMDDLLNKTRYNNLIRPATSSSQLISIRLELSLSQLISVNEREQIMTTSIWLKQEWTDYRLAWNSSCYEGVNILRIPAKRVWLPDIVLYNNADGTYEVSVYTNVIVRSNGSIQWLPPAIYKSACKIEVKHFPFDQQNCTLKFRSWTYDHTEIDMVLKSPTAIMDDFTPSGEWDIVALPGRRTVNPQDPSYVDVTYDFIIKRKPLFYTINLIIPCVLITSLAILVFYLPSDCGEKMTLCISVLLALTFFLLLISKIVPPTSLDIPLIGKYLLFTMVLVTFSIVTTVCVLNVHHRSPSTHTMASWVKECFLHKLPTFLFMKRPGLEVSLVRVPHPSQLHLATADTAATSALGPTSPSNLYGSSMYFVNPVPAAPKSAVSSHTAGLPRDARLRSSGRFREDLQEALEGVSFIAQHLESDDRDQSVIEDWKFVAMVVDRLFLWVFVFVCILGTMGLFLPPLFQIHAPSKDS
UniProt P43143, 31-493 limits assumed: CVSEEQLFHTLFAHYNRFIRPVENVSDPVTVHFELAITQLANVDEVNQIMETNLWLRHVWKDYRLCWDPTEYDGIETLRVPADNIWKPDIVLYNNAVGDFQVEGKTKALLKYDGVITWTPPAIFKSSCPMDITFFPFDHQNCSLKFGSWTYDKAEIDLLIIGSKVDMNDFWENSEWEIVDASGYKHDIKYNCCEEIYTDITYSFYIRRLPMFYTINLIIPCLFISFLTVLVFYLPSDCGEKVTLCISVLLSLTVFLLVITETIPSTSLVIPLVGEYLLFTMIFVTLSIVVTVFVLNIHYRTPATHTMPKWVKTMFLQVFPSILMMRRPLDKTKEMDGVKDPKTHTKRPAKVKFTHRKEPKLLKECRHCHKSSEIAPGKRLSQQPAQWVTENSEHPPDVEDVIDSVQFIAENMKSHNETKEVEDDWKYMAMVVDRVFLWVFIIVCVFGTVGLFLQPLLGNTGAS

One may read the IC50 as the point on the concentration scale where inhibition reaches its midpoint.

The target of assay [1] is Nicotinic acetylcholine receptor alpha6/alpha3/beta4 (Rattus norvegicus, UniProt P04757+P12392+P43143). The assay is described as follows: Antagonist activity at rat alpha6/alpha3beta4 nACHR expressed in xenopous laevis oocyte assessed as inhibition of ACh induced channel current after 5 mins at -70 mV holding potential by two electrode voltage clamp method. For orientation: Two-electrode voltage clamp holds a large cell at a set potential and records current.

The target of assay [2] is Neuronal acetylcholine receptor; alpha3/beta4 (Rattus norvegicus, UniProt P04757+P12392). Description: Antagonist activity at rat alpha3beta4 nACHR expressed in xenopous laevis oocyte assessed as inhibition of ACh induced channel current after 5 mins at -70 mV holding potential by two electrode voltage clamp method.

Each structure is given as a SMILES string. Some results are limits rather than exact numbers.

Turning to `CC[C@H](C)[C@@H]1NC(=O)[C@@H]2CCCN2C(=O)[C@H](CO)NC(=O)[C@H](C)NC(=O)[C@H](C)NC(=O)[C@H](CO)NC(=O)[C@@H]2CSSC[C@H](NC(=O)CN)C(=O)N[C@@H](CSSC[C@@H](C(N)=O)NC1=O)C(=O)N[C@@H](CO)C(=O)N[C@@H](Cc1cnc[nH]1)C(=O)N1CCC[C@H]1C(=O)N[C@@H](C(C)C)C(=O)N2`, the IC50 in assay [1] and in assay [2] was greater than 10 µM each time.
